A mixed list of measured activities; the numbers were collected in NIAID ChemDB.

Shared fields: growth or infection tests; organism: HIV-1; method: p24; read-out: EC50

Blank or dashed fields: not listed here.

structure	cells	mutations	strain	result
CC(C)CN(C[C@@H](O)[C@H](Cc1ccccc1)NC(=O)[C@H](CC(N)=O)NC(=O)c1ccc2ccccc2n1)C(=O)NC(C)(C)C	MT-4	PR-M46I	NL4-3	<0.2 µM
Nc1nc(NC2CC2)c2ncn([C@H]3C=C[C@@H](CO)C3)c2n1	MT-2	1(T69G+K103N)	RT-T69G K103N	0.149 µM
COC(=O)c1ccccc1NC(=O)CSc1nnnn1-c1cccc2ccccc12	MT-4			<10 µM
O=c1[nH]cnc2c1ncn2[C@H]1CC[C@@H](CO)O1	MT-2	RT-T69G		2.564 µM
O=C1N(Cc2ccc(CO)cc2)[C@H](Cc2ccccc2)[C@H](O)[C@@H](O)[C@@H](Cc2ccccc2)N1Cc1ccc(CO)cc1	PBMC		Clinical isolate W	0.04 µM
CC(C)CN(C[C@@H](O)[C@H](Cc1ccccc1)NC(=O)O[C@H]1CCOC1)S(=O)(=O)c1ccc(N)cc1	MT-4		NL4-3	<0.08 µM
Cc1cn([C@H]2C[C@H](N=[N+]=[N-])[C@@H](CO)O2)c(=O)[nH]c1=O	MT-4		IIIB)(ddC	0.04 µM
O=C(CSc1nnnn1-c1cccc2ccccc12)Nc1ccc(Cl)cc1[N+](=O)[O-]	MT-4			<10 µM
CC(C)(C)NC(=O)[C@@H]1C[C@@H]2CCCC[C@@H]2CN1C[C@@H](O)[C@H](Cc1ccccc1)NC(=O)[C@H](CC(N)=O)NC(=O)c1ccc2ccccc2n1	MT-4	PR-M46I L63P	NL4-3	<0.025 µM
CC(C)OC(=O)OCOP(=O)(CO[C@H](C)Cn1cnc2c(N)ncnc21)OCOC(=O)OC(C)C	MT-2	RT-G48V L90M	Saquinavir-resistant (G48V L90M)	0.01 µM
CC(C)OC(=O)OCOP(=O)(CO[C@H](C)Cn1cnc2c(N)ncnc21)OCOC(=O)OC(C)C	PBMC	RT-V35T E40D K173T R211K L214F	G3 R5 subtype G/- (env/gag)	0.6 µM
Cc1cc(C)c(-n2nnnc2SCC(=O)Nc2ccc(F)cc2Br)c(C)c1	MT-4			<10 µM
Cc1cn([C@H]2C[C@H](N=[N+]=[N-])[C@@H](CO)O2)c(=O)[nH]c1=O	PBMC	RT-K20R M41L D67N T69N K70R L210W T215Y	G890-1 NRTI resistant	>3.2 µM
O=C(CSc1nnnn1-c1ccc2c(c1)OCO2)Nc1ccccc1Cl	MT-4			<10 µM
COC(=O)[C@H](C)NP(=O)(OC[C@@H]1C=C[C@H](n2cc(C)c(=O)[nH]c2=O)O1)Oc1ccc(Br)cc1	PBMC	RT-M41W Y188L T215N	Y270-7 NRTI resistant	0.009 µM
Cc1cn([C@H]2C[C@H](N=[N+]=[N-])[C@@H](CO)O2)c(=O)[nH]c1=O	PBMC		7253 CLADE A CLADE A	0.008 µM

A second listing of 2 rows from above:

structure,cells,mutations,strain,result
O=C(CSc1nnnn1-c1ccc2c(c1)OCO2)Nc1ccccc1Cl,MT-4,,,<10 µM
CC(C)(C)NC(=O)[C@@H]1C[C@@H]2CCCC[C@@H]2CN1C[C@@H](O)[C@H](Cc1ccccc1)NC(=O)[C@H](CC(N)=O)NC(=O)c1ccc2ccccc2n1,MT-4,PR-M46I L63P,NL4-3,<0.025 µM

Conditions beyond the fields shown may differ between rows. ECn is the concentration giving n% inhibition of infection, replication or growth.